Assay: Hypoxic selectivity expressed as the ratio of IC50 values in air and nitrogen
Format: functional

SMILES	Selectivity
C[S+]([O-])c1ccc(N(CCCl)CCCl)cc1 (configuration not stated)	3
CCC[S+]([O-])c1ccc(N(CCCl)CCCl)cc1 (configuration not stated)	3
